Results of unrelated studies side by side (data: NIAID ChemDB).

Common to all: growth or infection tests; organism: Hepatitis B virus; method: hybridisation; measure: EC50

Lines come from different laboratories, so protocols vary.

CNc1nc2c(N)ncnc2n1[C@H]1CC[C@@H](CO)C1 ; cells: HepG2 2.2.15 ; result: 33 µM
Nc1nc(F)c2ncn(/C=C3/CC3(CO)CO)c2n1 ; cells: 2.2.15 ; result: >20 µM
O=c1cc(Sc2ccc(F)cc2)[nH]c(=O)[nH]1 ; cells: HepG2 2.2.15 ; result: >100 µM
Nc1ncnc2c1nc(-c1ccccc1)n2[C@H]1CC[C@@H](CO)C1 ; cells: HepG2 2.2.15 ; result: >200 µM
C[C@H](NP(=O)(OC[C@H]1C=C[C@@H](n2ccc3c(N)ncnc32)C1)Oc1ccccc1)C(=O)OCc1ccccc1 ; cells: HepG2 2.2.15 ; result: 0.1 µM
Nc1nc2c(ncn2/C=C2\CC2(CO)CO)c(=O)[nH]1 ; cells: 2.2.15 ; result: >10 µM
CC(C)CCCCCCCCCCCCCCOCCCOP(=O)(O)CO[C@H](CO)Cn1cnc2c(N)ncnc21 ; result: 0.8 µM
CCOC(=O)C1=C(CN2CCOCC2)NC(C2=NC=CC2)=NC1c1ccc(F)cc1Br ; cells: HepAD38 ; result: 0.06224 µM
COC(=O)[C@H](Cc1ccccc1)NP(=O)(OC[C@H]1C=C[C@@H](n2ccc3c(N)ncnc32)C1)Oc1ccccc1 ; cells: HepG2 2.2.15 ; result: 0.055 µM
CN(C)C(=O)c1nc2c(N)ncnc2n1[C@H]1CC[C@@H](CO)C1 ; cells: HepG2 2.2.15 ; result: 47 µM
CCc1c(Sc2ccc(F)cc2)[nH]c(=O)[nH]c1=O ; cells: HepG2 2.2.15 ; result: >100 µM
COC(=O)C(C)(C)NP(=O)(OC[C@H]1C=C[C@@H](n2ccc3c(N)ncnc32)C1)Oc1ccccc1 ; cells: HepG2 2.2.15 ; result: 0.05 µM
Nc1ncnc2c1nc(Br)n2[C@H]1CC[C@@H](CO)C1 ; cells: HepG2 2.2.15 ; result: 2 µM
Cc1cc(C)cc(Sc2cc(=O)[nH]c(=O)[nH]2)c1 ; cells: HepG2 2.2.15 ; result: >100 µM
CC1=C(O)C(=O)C=C2C1=CCC1[C@@]2(C)CC[C@@]2(C)[C@@H]3C[C@](C)(C(=O)O)CC[C@]3(C)CC[C@]12C ; cells: 2.2.15 ; result: 0.15 µM
Nc1ncnc2c1ccn2[C@H]1C=C[C@@H](CO)C1 ; cells: HepG2 2.2.15 ; result: >200 µM

ECn is the concentration giving n% inhibition of infection, replication or growth.